# Results from patent US6455587B1 (priority 2000, dated 2002).
# Target: recombinant HIV-1 protease (Human immunodeficiency virus type 1 group M subtype B, UniProt P04585)
# Assay: Enzymatic fluorometric (FRET) assay for determining the inhibition constant (Ki) against HIV protease
# Type: biochemical
# Details: pH 4.7, 31° C.
# Description: An Enzymatic assay for determining the inhibition constant (Ki) of synthetic compounds targeting the HIV protease may be carried out as follows: This is a fluorometric assay based on the cleavage by protease of a substrate carrying a donor group (EDANS) and an acceptor group (DABCYL) on each side of the cleavage site, interacting together through fluorescence resonance energy transfer (FRET). Cleavage of the substrate by protease stops energy exchange between the two groups, resulting in a time-dependent increase in fluorescence intensity that is linearly related to the extent of substrate hydrolysis.
# The enzymatic assay is done at 31° C. in white 96-well fluorescence microplates, in a total volume of 200 μL per well. The apparatus used for analysis is a FL600 fluorescence microplate reader (Biotek Instruments). […] Excitation of the fluorophore is done at 340 nm and emission at 485 nm is recorded continuously during the reaction, allowing determination of the enzyme's initial velocity (v0). At the end of the 4 min incubation, the potential inhibitor at a defined concentration in a volume of 4 μL is added to the reaction, and fluorescence readings are taken for another 4 min, allowing determination of enzyme velocity (vi) in the presence of the inhibitory compound. […]
smiles,measurement,value
Cc1ccc(S(=O)(=O)N(CC(C)C)[C@@H](CCCCNC(=O)O[C@H]2CC[C@@]3(C)C(=CC[C@H]4[C@@H]5CC[C@H]([C@H](C)CCCC(C)C)[C@@]5(C)CC[C@@H]43)C2)C(=O)O)cc1,Ki,> 1250 nM
